In the supplement of paper PMC9931576:
Human monoclonal antibodies against the spike receptor-binding domain (heavy:light variable regions). IC50 against pseudoviruses bearing the spike of naturally observed variants; lower = stronger; >10 µg/ml means not reached at the top dose. No active / inactive call. The stated detection limit is 0.0005 µg/ml; values near or below 0.001 µg/ml lie at the floor of the assay.

Experiments:
Assay in all cases: pseudovirus neutralization IC50; higher = weaker neutralization
[1] = biological target: SARS-CoV-2 Omicron BA.1 spike pseudovirus
Description: (§1)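 Single-round VSV luciferase pseudovirus mixed with antibody dilutions for 1 h and put on Huh-7 cells for about a day; IC50 from the dose curve.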

[2] = biological target: SARS-CoV-2 Omicron BA.2 spike pseudovirus
Description: as §1

[3] = biological target: SARS-CoV-2 Omicron BA.2.75 spike pseudovirus
Description: as §1

[4] = biological target: SARS-CoV-2 Omicron BA.5 spike pseudovirus
Description: as §1

[5] = biological target: SARS-CoV-2 Omicron BQ.1.1 spike pseudovirus
Description: as §1

[6] = biological target: SARS-CoV-2 Omicron XBB spike pseudovirus
Description: as §1

[7] = biological target: SARS-CoV-2 early D614G spike pseudovirus
Description: as §1

B1: BD57-026 (protein)
chain 1: EVQLSESGGGLVQPGGSLRLSCVASGFSFSRYDMTWVRQAPGKGLEWVSVIDSGGSTTYYADSVQGRFTISRDNSKNTLYLQMNSLRAGDTAVYYCAKDFLPGNTGHYGGLDYWGQGTLVTVSS
chain 2: AIRMTQSPSSFSASTGDRVTITCRASQAISSYLAWYQQKPGKAPKFLIYAASTLQSGVPSRFSGSGSGTEFTLTISFLQSEDFATYYCQQYYSYPLTFGGGTKVEIK
- pseudovirus neutralization IC50 [1]: 0.298 mg/L
- pseudovirus neutralization IC50 [2]: 0.273 mg/L
- pseudovirus neutralization IC50 [3]: 0.373 mg/L
- pseudovirus neutralization IC50 [4]: 1.77 mg/L
- pseudovirus neutralization IC50 [5]: > 10 mg/L
- pseudovirus neutralization IC50 [6]: > 10 mg/L
- pseudovirus neutralization IC50 [7]: 0.0673 mg/L

B2: BD57-027 (protein)
chain 1: EVQLVESGGGLVQPGGSLRLACAASGVTVSSNYMSWVRQAPGKGLEWVSILYSGGSTFYADSVKGRFTISRDNSKNTLYLQMNSLRAEDTAVYYCARDLLEAGGTDQWGQGTLVTVSS
chain 2: EIVLTQSPGTLSLSPGERATLSCRASQSISSSSLAWYQQKPGQAPSLLIYGASSRATGIPDRFSGSGSGTDFTLTISRLEPEDFAVYYCQQYGSSPGYTFGQGTKLEIK
- pseudovirus neutralization IC50 [1]: 0.0212 mg/L
- pseudovirus neutralization IC50 [2]: 0.0161 mg/L
- pseudovirus neutralization IC50 [3]: 0.0298 mg/L
- pseudovirus neutralization IC50 [4]: 0.0139 mg/L
- pseudovirus neutralization IC50 [5]: 0.162 mg/L
- pseudovirus neutralization IC50 [6]: 0.12 mg/L
- pseudovirus neutralization IC50 [7]: 0.0143 mg/L

B3: BD57-028 (protein)
chain 1: QITLKESGPTLVKPTQTLTLTCTFSGFSLSASGEGMGWIRQPPGKALEWLALIYWDADERYSPSLRSRLTITKDTSKNQVVLKMTNMNPVDTATYYCAHHSITTVVDYWGQGMLVTVSS
chain 2: QSALTQPASVSGSPGQSITISCTGTISDVGAFNYVSWYQQHPGRAPKLIIYDVSTRPSGISIRFSGSKSGNTASLTISGLQPEDEADYYCSSYSHTSLVFGTGTKVTVL
- pseudovirus neutralization IC50 [1]: 0.00623 mg/L
- pseudovirus neutralization IC50 [2]: 0.00588 mg/L
- pseudovirus neutralization IC50 [3]: 0.00736 mg/L
- pseudovirus neutralization IC50 [4]: 0.00568 mg/L
- pseudovirus neutralization IC50 [5]: 4.91 mg/L
- pseudovirus neutralization IC50 [6]: 4.58 mg/L
- pseudovirus neutralization IC50 [7]: 0.00194 mg/L

B4: BD57-030 (protein)
chain 1: EVQLVESGGGLVQPGRSLRLSCAASGFTFDEYAMHWVRQAPGKGLEWVSGISWNSGVIGYADSVRGRFIISRDNAKNSLYVQMKSLRAEDTALYYCAKGKGDCSSTSCSGAYGMDVWGQGTTVTVSS
chain 2: QSALTQPASVSGSPGQSITISCTGTSSDVGGYNYVSWYQQHPGKAPKLMIYDVSNRPSGVSNRFSGSTSGNTASLTISGLQAEDEADYFCSSFAITDTLVFGGGTKLTVL
- pseudovirus neutralization IC50 [1]: 1.69 mg/L
- pseudovirus neutralization IC50 [2]: 2.11 mg/L
- pseudovirus neutralization IC50 [3]: 2.09 mg/L
- pseudovirus neutralization IC50 [4]: 4.04 mg/L
- pseudovirus neutralization IC50 [5]: > 10 mg/L
- pseudovirus neutralization IC50 [6]: > 10 mg/L
- pseudovirus neutralization IC50 [7]: 0.0152 mg/L

B5: BD57-032 (protein)
chain 1: QVQLVESGGGLVKPGGSLRLSCATSGFTFNDYDMRWIRQAPGKGLEWVSYISKSGSTIYYAGSVKGRFTISRENARNSLYLQMNSLRAEDTAVYYCARDLWTISSGWYALDGQAFDYWGQGTLVTVSS
chain 2: QSVLTQPPSVSGAPGQRVTISCTGSSSNIGAGYDVHWYQQLPGTAPKLLIYGNSNRPSGVPDRFSGSKSGTSASLAITGLQAEDEADYYCQSYDSSLSAPYWVFGGGTKLTVL
- pseudovirus neutralization IC50 [1]: 0.283 mg/L
- pseudovirus neutralization IC50 [2]: 1.64 mg/L
- pseudovirus neutralization IC50 [3]: 1.56 mg/L
- pseudovirus neutralization IC50 [4]: 1.64 mg/L
- pseudovirus neutralization IC50 [5]: 1.83 mg/L
- pseudovirus neutralization IC50 [6]: 2.08 mg/L
- pseudovirus neutralization IC50 [7]: 0.0378 mg/L

B6: BD57-034 (protein)
chain 1: EVQLVESGGGLVQPGRSLRLSCTASGFTFEDYAMHWVRQAPGKGLEWVSGTSWNSGTIGYADSVKGRFIIIRDNAKNSLYLQMNSLRAEDTALYYCAKDLIAVGGTLLEEYALDVWGQGTTVTVSS
chain 2: QSALTQPASVSGSHGQSITISCTGTSSDVGGYNYVSWYQQHPGKAPKLMIYDVSKRPSVVSNRFSGSKYGNKASLTISGLQAEDEADYYCSSYTSSSTVVFGGGTKLTVL
- pseudovirus neutralization IC50 [1]: 0.0269 mg/L
- pseudovirus neutralization IC50 [2]: 0.0308 mg/L
- pseudovirus neutralization IC50 [3]: 0.0251 mg/L
- pseudovirus neutralization IC50 [4]: 0.174 mg/L
- pseudovirus neutralization IC50 [5]: > 10 mg/L
- pseudovirus neutralization IC50 [6]: 0.666 mg/L
- pseudovirus neutralization IC50 [7]: 0.0107 mg/L

B7: BD57-039 (protein)
chain 1: QVTLRESGPALVKPTQTLTLTCTFSGISVSTVGMCVSWIRQPPGKALEWLARIDWDDDKYYNTSLKTRLTISKDISRNQVVLTMTNMNPVDTATYYCAQILGYSSPEPYGMDVWGQGTTVTVSS
chain 2: DIQMTQSPSSLSASVGDRVTITCRASQGIRNYLAWYQQKPGKVPKLLIYTASTLQSGVPSRFSGSGSGTDFTLTISSLQAEDVATYYCQKYNSAPFTFGPGTKVDIK
- pseudovirus neutralization IC50 [1]: 0.436 mg/L
- pseudovirus neutralization IC50 [2]: 0.275 mg/L
- pseudovirus neutralization IC50 [3]: 0.276 mg/L
- pseudovirus neutralization IC50 [4]: 0.232 mg/L
- pseudovirus neutralization IC50 [5]: > 10 mg/L
- pseudovirus neutralization IC50 [6]: > 10 mg/L
- pseudovirus neutralization IC50 [7]: 0.325 mg/L

B8: BD57-042 (protein)
chain 1: QVHLVQSGAEVKKPGASLTVSCQASGYTFNNYALHWVRQAPGQRLEWMGWIHPGLGNTKYSQKFQGRVTITRDTSARTAFMELTSLKSEDTAVYYCARDIEAAAETFDYWGQGTLVTVSS
chain 2: DIQMTQSPSTLSASVGDRVTITCRASQNINSWLAWYQQKPGKAPKFLIYDASSLKSGVPSRFSGSGSGTDFTLTISSLQPDDFATYYCQQYKSDPTFGQGTKVEIK
- pseudovirus neutralization IC50 [1]: 0.00543 mg/L
- pseudovirus neutralization IC50 [2]: 0.00123 mg/L
- pseudovirus neutralization IC50 [3]: 0.00337 mg/L
- pseudovirus neutralization IC50 [4]: 0.298 mg/L
- pseudovirus neutralization IC50 [5]: > 10 mg/L
- pseudovirus neutralization IC50 [6]: > 10 mg/L
- pseudovirus neutralization IC50 [7]: 0.00592 mg/L

B9: BD57-047 (protein)
chain 1: QVQLVQSGAEVKKPGSSVKVSCKASGGTFSSYAINWVRQAPGQGLEWMGRIISMFDIANYAQNFQGRVTITADKSTSTAYMELNSLRSEDTAVYYCATTKFFYDPGVGYYFDYWGQGTLVTVSS
chain 2: EIVLTQSPGTLSLSPGERATLSCRASQNLGSNYLAWYQQKPGQAPRLLIYGASSRATGIPDRFSGSGSGTDFILTISRLEPEDFAVYYCQQYDTSRTFGQGTKVEIK
- pseudovirus neutralization IC50 [1]: 0.0147 mg/L
- pseudovirus neutralization IC50 [2]: 0.0283 mg/L
- pseudovirus neutralization IC50 [3]: 0.00641 mg/L
- pseudovirus neutralization IC50 [4]: > 10 mg/L
- pseudovirus neutralization IC50 [5]: > 10 mg/L
- pseudovirus neutralization IC50 [6]: > 10 mg/L
- pseudovirus neutralization IC50 [7]: 0.00867 mg/L

B10: BD57-049 (protein)
chain 1: QMQLVQSGPEVKKPGTSAKVACQASGFTFYSSAIQWVRQARGQRLEWIGWIVVGSGNTNYAEEFQERVTITRDMSTSTAYMELSSLRSGDTAVYYCAAPHCNRTSCYDGFDIWGQGTMVTVSS
chain 2: EIVLTQSPGTLSLSPGERATLSCRASQSVSSNYLAWYQQKPGQAPRLLIYGASSRATGIPDRFSGSGSGTDFTLTISRLEPEDFAVYYCQHYGGSLFTFGPGTKVDIK
- pseudovirus neutralization IC50 [1]: 0.00651 mg/L
- pseudovirus neutralization IC50 [2]: 0.00857 mg/L
- pseudovirus neutralization IC50 [3]: 0.00839 mg/L
- pseudovirus neutralization IC50 [4]: 0.134 mg/L
- pseudovirus neutralization IC50 [5]: 3.63 mg/L
- pseudovirus neutralization IC50 [6]: > 10 mg/L
- pseudovirus neutralization IC50 [7]: 0.00156 mg/L

B11: BD57-051 (protein)
chain 1: QVQLVQSGAEVKKPGSSVKVSCKASGDTFSSTISWVRQAPGQGLEWMGRIIPMIDIVNYAQKFQGRVTITADKSTSTVYMEMSSLRSEDTAVYYCTRVFGYGELSYGMDVWGQGTTVTVSS
chain 2: DIQMTQSPSSLSASVGDRVTITCRASQTISRYLNWYQQKPGEAPKLLIYAASTLQSGVPSRFSGSGSGTDFTLTINSLQPEDFATYYCQQSYRMYTFGQGTKLDIK
- pseudovirus neutralization IC50 [1]: 0.65 mg/L
- pseudovirus neutralization IC50 [2]: 0.876 mg/L
- pseudovirus neutralization IC50 [3]: 1.02 mg/L
- pseudovirus neutralization IC50 [4]: 5.62 mg/L
- pseudovirus neutralization IC50 [5]: > 10 mg/L
- pseudovirus neutralization IC50 [6]: > 10 mg/L
- pseudovirus neutralization IC50 [7]: 0.143 mg/L

B12: BD57-052 (protein)
chain 1: QLQLQESGSGLVKPSQTLSLTCAVSGGSIRSVAYFWSWIRQPPGKGLEWIGDIFHTGDTYYNASLKSRITMSLDRSNNHFSLNLSSVTAADTAVYYCAARIVGAGDWFDPWGRGTLVSVSS
chain 2: SYVLTQPPSVSVAPGKTARITCGGNNIGSKSVHWYQQKPGQAPVLVIYYDSDRPSGIPERFSGSNSGNTATLTISRVEAGDEADYFCQMWDSSSDHNYVFGTGTKVTVL
- pseudovirus neutralization IC50 [1]: 0.0955 mg/L
- pseudovirus neutralization IC50 [2]: 0.0953 mg/L
- pseudovirus neutralization IC50 [3]: 0.125 mg/L
- pseudovirus neutralization IC50 [4]: > 10 mg/L
- pseudovirus neutralization IC50 [5]: > 10 mg/L
- pseudovirus neutralization IC50 [6]: 2.6 mg/L
- pseudovirus neutralization IC50 [7]: 0.0249 mg/L
